Test results published in paper PMC6002428, “Chemical synthesis, characterisation and in vitro and in vivo metabolism of the synthetic opioid MT-45 and its newly identified fluorinated analogue 2F-MT-45 with metabolite confirmation in urine samples from known drug users” (2018).

Conditions: two analytically confirmed cases of MT-45 intoxication

C1CCC(N2CCNCC2)CC1
metabolite detected in human urine samples: detected
